Pooled drug test results. Numbers come from NIAID ChemDB, via PubChem.

All rows: whole-cell or culture tests; organism: HIV-1

Two numbers with a dash give a range or band. Rows are shuffled and stem from different studies. ECn is the concentration giving n% inhibition of infection, replication or growth. An empty or dashed field is not shown.

SMILES,method,setting,changes,strain or isolate,cells,measure,value
Cc1ccc2c(c1)COP(=O)(OC[C@H]1O[C@@H](n3cc(C)c(=O)[nH]c3=O)C[C@@H]1N=[N+]=[N-])O2,-,-,-,-,CEM + CEM/O,EC50,0.005 µM
CC(C)[C@H](NC(=O)c1ccc2ccccc2n1)C(=O)N[C@@H](Cc1ccccc1)[C@H](O)CN1CC[C@@H](SCc2cccnc2)C[C@H]1C(=O)NC(C)(C)C,p24,-,-,IIIB,C8166,EC50,0.001 µM
COc1cc(O)c2c(c1)C(=O)c1c(cc3c(c1O)-c1c(cc(C)c(C(=O)N[C@H](C)C(=O)O)c1O)[C@H](O[C@@H]1O[C@H](C)[C@H](O)[C@H](O[C@@H]4OC[C@@H](OS(=O)(=O)O)[C@H](O)[C@H]4O)[C@H]1O)[C@H]3O)C2=O,antigen,-,-,IIIB,MT-4,EC50,~30 µg/mL
Cc1cn([C@H]2C=C[C@@H](CO)O2)c(=O)[nH]c1=O,p24,4 d,-,pNL4-3,CEM,EC50,0.27 µM
Cc1cn([C@H]2C[C@H](N=[N+]=[N-])[C@@H](CO)O2)c(=O)[nH]c1=O,p24,-,-,IIIB A17 (NNRTI-resistant RT K103N Y181C),PBMC,EC50,0.005 µM
CCCCCCOCCCCCCC(=O)O,cytopathic effect / MTT,-,-,-,CEM,EC50,>40 µM
COC(=O)[C@@H](C)NC(=O)c1c(C)cc2c(c1O)-c1c(cc3c(c1O)C(=O)c1cc(OC)cc(O)c1C3=O)[C@H](O)[C@H]2O[C@@H]1O[C@H](C)[C@H](N)[C@H](O[C@@H]2OC[C@@H](O)[C@H](O)[C@H]2O)[C@H]1O,syncytia,-,-,IIIB,MOLT-4,EC50,<30 µg/mL
Cc1cn([C@H]2CC[C@H](CO)O2)c(=O)[nH]c1=O,-,-,-,-,-,EC50,>1000 µM
CSC[C@H](NC(=O)COc1cccc2cnccc12)C(=O)N[C@@H](Cc1ccccc1)[C@H](O)C(=O)N1CSC(C)(C)[C@H]1C(=O)NC(C)(C)C,p24,-,-,AZT-sens,PBMC(PHA STIM.) + PBMC,EC50,0.01 µM
Cc1cn([C@H]2C[C@H](N=[N+]=[N-])[C@@H](COP3(=O)OCc4cc([N+](=O)[O-])ccc4O3)O2)c(=O)[nH]c1=O,-,-,-,-,CEM + CEM/O,EC50,0.008 µM
CCCCC#CCSc1ccccc1OC(C)=O,p24,-,-,BaL,PBMC,EC50,23 µM
Cc1cccc2c1OP(=O)(OC[C@H]1O[C@@H](n3cc(C)c(=O)[nH]c3=O)C[C@@H]1N=[N+]=[N-])OC2,-,-,-,-,CEM + CEM/O,EC50,0.006 µM
CC(C)(C)NC(=O)[C@@H]1CN(Cc2ccccc2)CCN1C[C@@H](O)C[C@@H](Cc1ccccc1)C(=O)N[C@H]1c2ccccc2C[C@H]1O,p24,-,-,IIIB,MT-4,EC50,<0.05 µM
O=c1[nH]cnc2nc[nH]c12,p24,-,-,IIIB,MOLT4 + MOLT-4,EC50,>1000 µM
CC[C@@H]1[C@H](O)[C@@H](O)[C@@H](CC)N(Cc2cccc(C(=O)Nc3nc4ccccc4[nH]3)c2)C(=O)N1Cc1cccc(C(=O)Nc2nc3ccccc3[nH]2)c1,-,3 d,-,RF,MT-2,EC50,<0.57 µM
CC(C)=CCOc1cc(NC(=S)c2ccoc2C)ccc1Cl,p24,-,-,92US657 Clinical isolate,PBMC,EC50,0.00772 µg/mL
C/C(=N\NC(=S)NNC(=S)c1ccc(Cl)cc1)C12CC3CC(CC(C3)C1)C2,-,-,-,IIIB,MT-4,EC50,>10 µM
Cc1c(O)cccc1C(=O)N[C@@H](Cc1ccccc1)[C@H](O)C(=O)N1CSC(C)(C)[C@H]1C(=O)NC(C)(C)C,-,-,-,IIIB,CEM + CEM-SS,EC50,0.02 µM
Cc1cn([C@H]2C=C[C@@H](CO)O2)c(=O)[nH]c1=O,cytopathic effect / XTT,-,-,RF,CEM + CEM-SS,EC50,0.22–0.32 µM
Nc1ncnc2c1ncn2[C@H]1CC[C@@H](CO)O1,RT activity,5 d,-,IIIB,CEM + CEM-SS,EC50,0.08 µM
CCCCCC[C@@H]1[C@H](O)[C@@H](O)[C@@H](CCCCCC)N(Cc2cccc(C(=O)Nc3nc4ccccc4[nH]3)c2)C(=O)N1Cc1cccc(C(=O)Nc2nc3ccccc3[nH]2)c1,-,3 d,-,RF,MT-2,EC50,<0.086 µM
CC[C@H](C)[C@H]1NC(=O)[C@@H](NC(=O)[C@@H](CC(C)C)N(C)C(=O)c2cc3ccccc3s2)[C@@H](C)OC(=O)[C@H](Cc2ccc(OC)cc2)N(C)C(=O)[C@@H]2CCCN2C(=O)[C@H](CC(C)C)NC(=O)[C@H](C(C)C)OC(=O)C[C@@H]1O,luciferase,-,Delta-env-VSV-Luc,NL4-3,PBMC,EC50,0.008 µM
Cc1cn([C@H]2C[C@H](N=[N+]=[N-])[C@@H](CO)O2)c(=O)[nH]c1=O,MTT,-,-,SDF-resistant (subtype B),MT-4,EC50,0.0006 µg/mL
CC(C)(C)NC(=O)[C@@H]1C[C@@H]2CCCC[C@@H]2CN1C[C@@H](O)[C@H](Cc1ccccc1)NC(=O)[C@H](CC(N)=O)NC(=O)c1ccc2ccccc2n1,p24,-,PR-L90M,HXB2,MT-2,EC50,0.0057 µM
CCc1c(C(=O)c2cccc3ccccc23)n(C/C=C/c2ccccc2)c(=O)[nH]c1=O,cytopathic effect / MTT,-,-,IIIB,MT-4,EC50,0.19 µM
CC(C)CN(C[C@@H](O)[C@H](Cc1ccccc1)NC(=O)O[C@H]1CCOC1)S(=O)(=O)c1ccc(N)cc1,p24,-,PR-D30N M46I A71V,NL4-3,MT-4,EC90,0.04 µM
CCOC(=O)Cn1c(C(=O)c2cccc3ccccc23)c(C(C)C)c(=O)[nH]c1=O,cytopathic effect / MTT,-,-,IIIB,MT-4,EC50,1.42 µM
CC(C)(C)NC(=O)[C@@H]1CN(C(=O)c2cc3ccccc3oc2=O)CCN1C[C@@H](O)C[C@@H](Cc1ccccc1)C(=O)N[C@H]1c2ccccc2C[C@H]1O,p24,-,-,IIIB,MT-4,EC50,<0.05 µM
COc1cc(O)c2c(c1)C(=O)c1c(cc3c(c1O)-c1c(cc(C)c(C(=O)N[C@H](C)C(=O)O)c1O)[C@H](O[C@@H]1O[C@H](C)[C@H](N)[C@H](O[C@@H]4OC[C@@H](O)[C@H](O)[C@@H]4O)[C@H]1O)[C@H]3O)C2=O,antigen,-,-,IIIB,MT-4,EC50,<10 µg/mL
CC(C)=CCN1Cc2cc(Cl)cc3[nH]c(=S)n(c23)C[C@@H]1C,-,-,RT-L74V A98G,-,MT-4,EC95,>3 µM
O=C(Nc1nc2ccccc2[nH]1)c1cccc(CN2C(=O)N(Cc3cccc(C(=O)Nc4nc5ccccc5[nH]4)c3)[C@H](Cc3ccc(O)cc3)[C@H](O)[C@@H](O)[C@H]2Cc2ccc(O)cc2)c1,-,3 d,-,RF,MT-2,EC90,0.035 µM
CC(C)Nc1cccnc1N1CCN(C(=O)c2cc3cc(NS(C)(=O)=O)ccc3[nH]2)CC1,p24,-,RT-E89G,RT-M184V,PBMC,EC50,0.008 µM
CCCCCC[C@@H]1[C@H](O)[C@@H](O)[C@@H](Cc2ccccc2)N(Cc2cccc(C(=O)Nc3nc4ccccc4[nH]3)c2)C(=O)N1Cc1cccc(C(=O)Nc2nc3ccccc3[nH]2)c1,-,3 d,-,RF,MT-2,EC50,<0.009 µM
Nc1nc2c(ncn2[C@H]2C=C[C@@H](CO)C2)c(=O)[nH]1,cytopathic effect / XTT / RT activity,5 d,-,J4A ddC-resistant,MT-2,EC50,1.2 µM
Nc1ncnc2c1ncn2[C@@H]1O[C@H](COP(=O)(O)OP(=O)(O)OP(=O)(O)O)[C@@H](O)[C@H]1O,p24,-,-,IIIB,MOLT4 + MOLT-4,EC50,>1826 µM
Cc1cccc(C[C@@H](O)[C@H](Cc2ccccc2)NC(=O)[C@H](CC(N)=O)NC(=O)c2ccc3ccccc3n2)c1C(=O)NC(C)(C)C,cytopathic effect / XTT,-,-,RF,CEM + CEM-SS,EC50,0.92 µM
CCCCCCCCCC(=O)O,RT activity,-,-,-,H9,EC50,>100 µM
CC(C)(C)NC(=O)[C@@H]1C[C@@H]2CCCC[C@@H]2CN1C[C@@H](O)[C@H](Cc1ccccc1)NC(=O)[C@H](CC(N)=O)NC(=O)c1ccc2ccccc2n1,p24,-,-,006,PBMC,EC50,0.0049 µM
CC(C)c1c(C(=O)c2cccc3ccccc23)n(C/C=C/c2ccccc2)c(=O)n(C/C=C/c2ccccc2)c1=O,cytopathic effect / MTT,-,-,IIIB,MT-4,EC50,>129 µM
COc1cccc2c1OP(=O)(OC[C@H]1O[C@@H](n3cc(C)c(=O)[nH]c3=O)C[C@@H]1N=[N+]=[N-])OC2,-,-,-,-,CEM + CEM/O,EC50,0.009 µM
Cc1cn([C@H]2C[C@H](N=[N+]=[N-])[C@@H](CO)O2)c(=O)[nH]c1=O,RT activity,-,-,-,H9,EC50,<5 µM
CC(C)=CCN1Cc2cccc3[nH]c(=S)n(c23)C[C@@H]1C,p24,-,-,HXB2,PBMC,EC50,0.05 µM
CCCc1cc(=O)oc2c3c(c4c(c12)OC(C)(C)C=C4)O[C@H](C)[C@H](C)[C@H]3O,cytopathic effect / XTT,-,-,RF,CEM + CEM-SS,EC50,>100 µM
CC(C)(C)NC(=O)c1c(C[C@@H](O)[C@H](Cc2ccccc2)NC(=O)[C@H](CC(N)=O)NC(=O)c2ccc3ccccc3n2)ccc2ccccc12,cytopathic effect / XTT,-,-,RF,CEM + CEM-SS,EC50,0.19 µM
CCN1CCN(C[C@@H](O)C[C@@H](Cc2ccccc2)C(=O)N[C@H]2c3ccccc3C[C@H]2O)[C@H](C(=O)NC(C)(C)C)C1,p24,-,-,IIIB,MT-4,EC95,>0.4 µM
Cc1cn([C@H]2C=C[C@@H](COP(=O)(O)OP(=O)(O)OP(=O)(O)O)O2)c(=O)[nH]c1=O,-,-,-,-,-,EC50,0.33 µM
Cc1cn([C@H]2C=C[C@H](CO)O2)c(=O)[nH]c1=O,-,-,-,-,-,EC50,>1000 µM
CCCCCCCCOCCCCC(=O)O,cytopathic effect / MTT,-,-,-,CEM,EC50,>40 µM
CC(C)c1cc2c(c(O)c1O)[C@@]1(C(=O)O)CCCC(C)(C)C1CC2,-,-,-,LAI,MT-2,EC50,0.047 µM
C/C=C(\C)CC/C=C(\C)CC/C=C(\C)CC/C=C(\C)CC/C=C(\C)CC/C=C(\C)CC/C=C(\C)CC/C=C(\C)CC/C=C(\C)Cn1c(C(=O)c2cccc3ccccc23)c(C(C)C)c(=O)[nH]c1=O,cytopathic effect / MTT,-,-,IIIB,MT-4,EC50,>72.01 µM
Nc1ncnc2nc[nH]c12,p24,-,-,IIIB,MOLT4 + MOLT-4,EC50,>254 µM
COc1cc(O)c2c(c1)C(=O)c1c(cc3c(c1O)-c1c(cc(C)c(C(=O)NC(C)C(=O)O)c1O)[C@H](OC1OC(C)C(N)C(O)C1O)[C@H]3O)C2=O,antigen,-,-,IIIB,MT-4,EC50,>30 µg/mL
Nc1ccc(C[C@@H]2[C@H](O)[C@@H](O)[C@@H](Cc3ccc(N)cc3)N(Cc3cccc(C(=O)Nc4nc5ccccc5[nH]4)c3)C(=O)N2Cc2cccc(C(=O)Nc3nc4ccccc4[nH]3)c2)cc1,-,3 d,-,RF,MT-2,EC50,<0.01 µM
CC(C)(C)NC(=O)[C@H]1N(C(=O)[C@@H](O)[C@H](Cc2ccccc2)NC(=O)[C@H](CC(N)=O)NC(=O)COc2cccc(Nc3ccccc3)c2)CSC1(C)C,-,-,PR-V32I L33F K45I F53L A71V I84V,IIIB,CEM + CEM-SS,EC50,0.04 µM
O=C1OC(C2OC(=O)c3cc(O)c(O)c(O)c3-c3c(O)c(O)c4oc(=O)c5c(c(O)c(O)c6oc(=O)c3c4c65)-c3c(cc(O)c(O)c3O)C(=O)OCC2O)C2OC(=O)c3c(c(O)c(O)c(O)c3C2O)-c2c1cc(O)c(O)c2O,p24,-,-,IIIB,H9,EC50,1 µg/mL
CC(C)c1c(C(=O)c2cccc3ccccc23)n(Cc2ccccc2)c(=O)[nH]c1=O,cytopathic effect / MTT,-,-,IIIB,MT-4,EC50,0.3 µM
Cc1cccc(C)c1OCC(=O)N[C@@H](Cc1ccccc1)[C@H](O)CN1CC[C@@H](Sc2ccncc2)C[C@H]1C(=O)NC(C)(C)C,p24,-,PR-V32I A71V,BILA1906-resistant (PR V32I A71V),C8166,EC50,0.008 µM
O=c1[nH]cnc2c1ncn2[C@H]1CC[C@@H](CO)O1,cytopathic effect / XTT,-,-,RF,CEM + CEM-SS,EC50,2.25–2.45 µM
CC(C)(C)NC(=O)[C@@H]1CN(C(=O)OCc2ccccc2)CCN1C[C@@H](O)C[C@@H](Cc1ccccc1)C(=O)N[C@H]1c2ccccc2C[C@H]1O,p24,-,-,IIIB,MT-4,EC50,<0.1 µM
CCCOCCCCCCCCCC(=O)O,RT activity,-,-,-,H9,EC50,<100 µM
Cc1ccc(-c2c(C)c(-c3ccc(C)c(C)c3)c3[nH]c(=O)ccc3c2C(OC(C)(C)C)C(=O)O)cc1C,MTT,-,-,IIIB,MT-4,EC50,0.038 µM
O=C(O)P(=O)(O)O,-,-,TAM2 (D67N K70R T215F K219Q),HXB2,MT-2,EC50,10.5 µM
O=c1[nH]cnc2c1ncn2[C@H]1CC[C@@H](CO)O1,cytopathic effect / MTT,-,-,-,CEM,EC50,5 µM